Anti-infective test results gathered from many reports (values: NIAID ChemDB through PubChem).

Common to all: tests in culture; agent: Herpes simplex virus 2; read-out: EC50

ECn: concentration that inhibits the pathogen or its effect by n%.

smiles | read by | strain or isolate | cells | result
Nc1nc(=O)n([C@@H]2O[C@H](CO)[C@@H](O)[C@@H]2F)cc1I | plaque count | UW-268 | HELF | 0.011 µg/mL
COC(=O)[C@H](C)NP(=O)(OCC1C/C1=C/n1cnc2c(=O)[nH]c(N)nc21)Oc1ccccc1 |  |  |  | >100 µM
O=c1[nH]c(=O)n([C@H]2C[C@H](O)[C@@H](CO)O2)cc1I | cytopathic effect | VCX304 | PRK | 0.4 µg/mL
Nc1ccn(C[C@@H](CO)OCP(=O)(O)O)c(=O)n1 | plaque count | 8708 (TK altered) | MRC-5 | 0.4 µM
O=C(CC1CCCCC1)N(O)c1ccc(Cl)cc1 | cytopathic effect | G | E6SM | 48 µg/mL
O=C(O[C@@H]1[C@@H](c2c(O)cc(O)c3c2O[C@H](c2cc(O)c(O)c(O)c2)[C@H](OC(=O)c2cc(O)c(O)c(O)c2)C3)c2c(O)cc(O)cc2O[C@@H]1c1cc(O)c(O)c(O)c1)c1cc(O)c(O)c(O)c1 | XTT | 196 | VERO | 7.2 µM
CCCCCCCCCCCCCCCCCCOCCCOP1(=O)CO[C@@H](Cn2ccc(N)nc2=O)CO1 | plaque count | G | HFF | >1 µM
Nc1nc2c(ncn2COCCO)c(=O)[nH]1 | cytopathic effect | G | HEL | 0.4 µM
CCCCCCCC#Cc1cn(S(=O)(=O)c2ccc(C)cc2)c(=O)[nH]c1=O | cytopathic effect | G | HEL | >200 µM
Nc1nc2c(ncn2COCCO)c(=O)[nH]1 | plaque count | 91075 | SIRC | 0.2 µM
O=C(NCc1ccc(Cl)cc1)c1cn2c3c(cc(CN4CCOCC4)cc3c1=O)OC(c1cccnc1)C2 | plaque count | SR (WILD TYPE) | HFF | 10.8 µM
CCc1cn([C@H]2C[C@H](O)[C@@H](CO)O2)c(=O)[nH]c1=O | cytopathic effect | 196 | PRK | 0.2 µg/mL
Nc1ncnc2c1ncn2[C@@H]1O[C@H](COP(=O)(O)O)[C@@H](O)[C@@H]1O | plaque count | X-79 | MEF | 29 µM
Cn1cc(C(=O)NCc2ccc(Cl)cc2)c(=O)c2cc(/C=C\CO)cc(F)c21 | plaque count | 186-M1 | VERO | >20 µM
Nc1nc(=O)c(/C=C/Br)cn1[C@H]1C[C@H](O)[C@@H](CO)O1 | cytopathic effect | G | PRK | 150 µg/mL
Cc1cn([C@@H]2S[C@H](CO)[C@@H](O)[C@@H]2F)c(=O)[nH]c1=O | cytopathic effect | MS |  | 3.2 µg/mL
CC[C@]1(Br)C(=O)NC(=O)N([C@H]2C[C@H](O)[C@@H](CO)O2)[C@@H]1OC | cytopathic effect | MS | HFF | 0.53 µM
Cn1cc(C(=O)NCc2ccc(Cl)cc2)c(=O)c2cc(CN3CCOCC3)ccc21 | plaque count | MS | VERO | 1.3 µM
CCO/N=C/c1ccc(OCCC2CCN(c3ccc(Cl)nn3)CC2)cc1 | neutral red | HGP | KB | 0.001 µM
Cc1cn([C@@H]2O[C@H](CO)[C@@H](O)[C@@H]2O)c(=O)[nH]c1=O | plaque count | HG-52 | HELF | 0.66 µg/mL
CC[C@@]1(Br)C(=O)NC(=O)N([C@H]2C[C@H](O)[C@@H](CO)O2)[C@H]1OC | cytopathic effect | MS | HFF | 0.13 µM
[N-]=[N+]=NCc1cn([C@H]2C[C@H](O)[C@@H](CO)O2)c(=O)[nH]c1=O | cytopathic effect | VCX301 | PRK | 4 µg/mL
Nc1nc2c(ncn2COCCO)c(=O)[nH]1 | cytopathic effect | G | PRK | 0.04 µg/mL
C/C(=N/Nc1nc(-c2ccc(C)cc2)cs1)c1ccc(NC(=O)CN2C(=O)c3ccccc3S2(=O)=O)cc1 | cytopathic effect | G | HEL | 20 µM
O=c1[nH]c(=O)n([C@H]2C[C@H](O)[C@@H](CO)O2)cc1CCCl | cytopathic effect | K979 | VERO | <30 µg/mL
O=c1[nH]c(=O)n([C@H]2C[C@H](O)[C@@H](CO)O2)cc1/C=C/Br | cytopathic effect | G | HEL | >300 µM
O=C(CC1CCCCC1)N(O)c1ccccc1 | cytopathic effect | G | E6SM | >80 µg/mL
CSCc1cn([C@H]2C[C@H](O)[C@@H](CO)O2)c(=O)[nH]c1=O | cytopathic effect | VDX192 | PRK | 10 µg/mL
CCCCCCCCCCC#Cc1c[nH]c(=O)[nH]c1=O | cytopathic effect | G | HEL | >40 µM
CCCCCCCCCCCCOCCCOP(=O)(O)CO[C@H](CO)Cn1ccc(N)nc1=O | plaque count | G | HFF | >1 µM
Nc1nc(=O)n([C@@H]2OC3COP(=O)([O-])OC3[C@H]2O)cc1F | cytopathic effect | MS | VERO | 92 µM
CC(=O)OC[C@H]1[C@H](COC(C)=O)[C@@H](COC(C)=O)O[C@H]1n1cnc2c(N)ncnc21 | plaque count | MS | MEF | 223 µM
COc1nc(N)nc2c1ncn2/C=C1/C[C@H]1CO |  |  |  | >50 µM
C/C(=N/NC(N)=S)c1ccc(NC(=O)CN2C(=O)c3ccccc3S2(=O)=O)cc1 | cytopathic effect | G | HEL | >100 µM
Nc1nc(=O)n([C@@H]2O[C@H](CO)[C@@H](O)[C@@H]2F)cc1I | plaque count | MS | VERO | 1.3 µM
CC(C)CS[C@@H]1C[C@H](n2cnc3c(N)ncnc32)[C@@H](O)[C@H]1O | cytopathic effect | G | E6SM | >80 µg/mL
COC(=O)[C@H](C)NP(=O)(OC[C@H]1C/C1=C/n1cnc2c(N)nc(N)nc21)Oc1ccccc1 |  |  |  | 15 µM
Nc1nc(Cl)nc2c1ncn2[C@H]1S[C@H](CO)[C@@H](O)[C@@H]1F | cytopathic effect | MS |  | >27 µg/mL
CCCCCCCC/C=C/CCCCCCCC(=O)OCC(CO)OCn1cnc2c(=O)[nH]c(N)nc21 | cytopathic effect | HS-44 (TK-) | HEL | 70 µM
O=c1[nH]c(=O)n([C@H]2C[C@H](O)[C@@H](CO)O2)cc1/C=C/Br | cytopathic effect | 196 | PRK | 25 µg/mL
O=c1[nH]c(=O)n([C@@H]2O[C@H](COP(=O)(O)O)[C@@H](O)[C@@H]2O)cc1/C=C/Br | plaque count | HG-52 | HELF | 26.9 µg/mL
Nc1nc(Cl)nc2c1ncn2[C@@H]1S[C@H](CO)[C@@H](O)[C@@H]1F | cytopathic effect | MS |  | 9 µg/mL
Nc1ncnc2c1c(Br)cn2COCCO | cytopathic effect |  | HEF | 10 µM
C/C(=N/Nc1nc(-c2ccc(Br)cc2)cs1)c1ccc(NC(=O)CN2C(=O)c3ccccc3S2(=O)=O)cc1 | cytopathic effect | G | HEL | >20 µM
Nc1ccn(C[C@@H](CO)OCP(=O)(O)O)c(=O)n1 | plaque count | SR | HFF | 6.5 µM
CCCCCC#Cc1c[nH]c(=O)[nH]c1=O | cytopathic effect | G | HEL | >200 µM
O=c1[nH]c(=O)n([C@H]2C[C@H](O)[C@@H](CO)O2)cc1/C=C/Br | cytopathic effect | G | PRK | <2.3 µg/mL
O=C(O)Cc1ccc(-c2ccccn2)cc1 |  | G | VERO | 0.1 µM
Nc1nc2c(ncn2COCCO)c(=O)[nH]1 | plaque count | MS | VERO | 2.4 µM
CCCCCCCCCCCCCCCCOP(=O)(O)CO[C@H](CO)Cn1ccc(N)nc1=O | plaque count | G | HFF | 0.6 µM
CCCCCCCC#Cc1c[nH]c(=O)[nH]c1=O | cytopathic effect | G | HEL | >40 µM
CCCCCCCCCCCCCCCCCOC[C@H](COP1(=O)CO[C@@H](Cn2ccc(N)nc2=O)CO1)OCc1ccccc1 | plaque count | SR | HFF | >1 µM
O=c1[nH]c(=O)n([C@@H]2O[C@H](CO)[C@@H](O)[C@@H]2F)cc1I | cytopathic effect | G | PRK | <0.02 µg/mL
Nc1nc(=O)n([C@H]2C=C(F)[C@@H](CO)O2)cc1F | cytopathic effect | MS | VERO | <0.5 µM
Nc1nc2c(ncn2COCCO)c(=O)[nH]1 | cytopathic effect | M23277 (acyclovir-susceptible) | HFF | 2.5 µg/mL
Nc1nc2c(ncn2COC(CO)CO)c(=O)[nH]1 | cytopathic effect | HS-47 (TK+) | HEL | 0.0056 µM
Nc1ccn([C@@H]2O[C@H](CO)[C@@H](O)[C@@H]2O)c(=O)n1 | cytopathic effect | MS | VERO | 1.1 µM
CCCCCCCCC#Cc1c[nH]c(=O)[nH]c1=O | cytopathic effect | G | HEL | >40 µM
Cn1cc(C(=O)NCc2ccc(Cl)cc2)c(=O)c2cc(CN3CCOCC3)ccc21 | plaque count | 13076 (WILD TYPE) | HFF | 1.8 µM
Nc1nc(F)nc2c1ncn2[C@H]1S[C@H](CO)[C@@H](O)[C@@H]1F | cytopathic effect | MS |  | >27 µg/mL
Nc1nc2c(ncn2CCC(O)CO)c(=O)[nH]1 | plaque count | 91075 | VERO | 12 µM
Nc1nc2c(ncn2CCC(CO)CO)c(=O)[nH]1 | plaque count | 186 | MRC-5 | 1.2 µg/mL
CCc1cn([C@H]2C[C@H](O)[C@@H](CO)O2)c(N)nc1=O | cytopathic effect | LYONS | PRK | >400 µg/mL
CCCCC#Cc1cn(S(=O)(=O)c2ccc(C)cc2)c(=O)[nH]c1=O | cytopathic effect | G | HEL | >40 µM
O=c1[nH]c(=O)n([C@H]2S[C@H](CO)[C@@H](O)[C@@H]2F)cc1/C=C/Br | cytopathic effect | MS |  | >27 µg/mL
CC(C)NS(=O)(=O)c1ccccc1C(=O)N/N=C/c1ccccc1 | cytopathic effect | G | HEL | >100 µM
O=Cc1cn([C@H]2C[C@H](O)[C@@H](CO)O2)c(=O)[nH]c1=O | cytopathic effect | VCX304 | PRK | 1 µg/mL
O=c1[nH]c(=O)n([C@@H]2O[C@H](CO)[C@@H](O)[C@@H]2O)cc1/C=C/Cl | plaque count | MS | HELF | 19.5 µg/mL
Nc1nc2c(ncn2CC[C@@H](O)CO)c(=O)[nH]1 | plaque count | 91075 | HEL | 5.3 µM

Neighbouring rows are from separate reports. An empty or dashed field is not shown.